Measured values from several laboratories, pooled; numbers as filed in NIAID ChemDB.

Common to all: growth or infection tests; species: Herpes simplex virus 1; read by: plaque count; measure: EC50

Neighbouring rows are from separate reports. ECn: concentration that inhibits the pathogen or its effect by n%. Blank or dashed fields: not listed here.

N#Cc1c(NC(=S)Nc2ccccc2)nc2[nH]c(=O)[nH]c(=O)c2c1-c1ccc(Cl)cc1 ; cells: VERO ; value: 8 µg/mL
Cc1cc(C)c2c(c1)COP(=O)(OC[C@H]1O[C@@H](n3cc(/C=C/Br)c(=O)[nH]c3=O)C[C@@H]1O)O2 ; cells: VERO ; strain: B2006 (TK-) ; value: >128 µg/mL
N#Cc1c(NC(=O)Nc2ccccc2)nc2[nH]c(=O)[nH]c(=O)c2c1-c1ccc(Cl)cc1 ; cells: VERO ; value: 18 µg/mL
O=c1[nH]c(=O)n([C@H]2C[C@H](O)[C@@H](COP3(=O)OCc4ccccc4O3)O2)cc1/C=C/Br ; cells: VERO ; strain: KUPKA (TK+) ; value: 0.38 µg/mL
COc1ccc2nc3cc(Cl)ccc3c(NCCCN3CCOCC3)c2c1 ; cells: VERO 76 ; value: >52 µM
N#Cc1c(N)nc2[nH]c(=O)[nH]c(=O)c2c1-c1ccc(Br)cc1 ; cells: VERO ; value: 40 µg/mL
O=c1[nH]c(=S)n([C@@H]2O[C@H](CO)[C@@H](O)[C@@H]2O)cc1Br ; cells: MRC-5 ; strain: KOS ; value: 11.8 µM
COc1ccc2nc3cc(Cl)ccc3c(NC(CO)C(C)C)c2c1 ; cells: VERO 76 ; value: >5 µM
O=c1[nH]c(=S)n([C@H]2C[C@H](O)[C@@H](CO)O2)cc1I ; cells: MRC-5 ; strain: KOS ; value: <0.43 µM
NC(=O)c1nnn([C@@H]2C[C@H](CO)C[C@H]2O)c1N ; cells: VERO ; strain: F ; value: >100 µM
Cc1cccc2c1OP(=O)(OC[C@H]1O[C@@H](n3cc(/C=C/Br)c(=O)[nH]c3=O)C[C@@H]1OC(=O)[C@H](N)Cc1ccccc1)OC2 ; cells: VERO ; strain: KUPKA (TK+) ; value: 1.09 µg/mL
NC(=O)c1nnn([C@@H]2C[C@H](CCP(=O)(O)O)C[C@H]2O)c1N ; cells: VERO ; strain: F ; value: >100 µM
COc1ccc(-c2c(C#N)c(NC(=O)Nc3ccccc3)nc3[nH]c(=O)[nH]c(=O)c23)c(OC)c1 ; cells: VERO ; value: 4 µg/mL
COc1ccc2nc3cc(Cl)ccc3c(NCC(C)N(C)C)c2c1 ; cells: VERO 76 ; value: >6 µM
O=c1ccn([C@H]2C[C@H](O)[C@@H](CO)O2)c(=S)[nH]1 ; cells: MRC-5 ; strain: KOS ; value: 8.64 µM
CC(C)(C)c1cccc2c1OP(=O)(OC[C@H]1O[C@@H](n3cc(/C=C/Br)c(=O)[nH]c3=O)C[C@@H]1O)OC2 ; cells: VERO ; strain: KUPKA (TK+) ; value: 0.67 µg/mL
COc1ccc2nc3cc(Cl)ccc3c(N)c2c1 ; cells: VERO 76 ; value: >10 µM
COc1ccc2c(c1)COP(=O)(OC[C@H]1O[C@@H](n3cc(/C=C/Br)c(=O)[nH]c3=O)C[C@@H]1O)O2 ; cells: VERO ; strain: KUPKA (TK+) ; value: 0.36 µg/mL
COc1ccc(-c2c(C#N)c(N)nc3[nH]c(=O)[nH]c(=O)c23)cc1OC ; cells: VERO ; value: 50 µg/mL
O=c1[nH]c(=S)n([C@@H]2O[C@H](CO)[C@@H](O)[C@@H]2O)cc1I ; cells: MRC-5 ; strain: KOS ; value: 51.8 µM
Cc1cccc2c1OP(=O)(OC[C@H]1O[C@@H](n3cc(/C=C/Br)c(=O)[nH]c3=O)C[C@@H]1OC(=O)[C@@H](N)CC(C)C)OC2 ; cells: VERO ; strain: KUPKA (TK+) ; value: 0.72 µg/mL
COc1ccc(-c2c(C#N)c(NC(=S)Nc3ccccc3)nc3[nH]c(=O)[nH]c(=O)c23)c(OC)c1 ; cells: VERO ; value: 12 µg/mL
[N-]=[N+]=CC(=O)CC[C@H](N)C(=O)O ; cells: VERO ; strain: KOS ; value: 16 µM
Cc1cn([C@H]2C[C@H](N=[N+]=[N-])[C@@H](CO)O2)c(=O)[nH]c1=O ; cells: VERO ; strain: F ; value: >10 µM
CCCCCCCCCC(=O)O[C@H]1C[C@H](n2cc(/C=C/Br)c(=O)[nH]c2=O)O[C@@H]1COP1(=O)OCc2cccc(C)c2O1 ; cells: VERO ; strain: KUPKA (TK+) ; value: 0.45 µg/mL
Nc1ccn([C@@H]2CS[C@H](CO)O2)c(=O)n1 ; cells: VERO ; strain: F ; value: >100 µM
Nc1nc(=S)n([C@H]2C[C@H](O)[C@@H](CO)O2)cc1I ; cells: MRC-5 ; strain: TK- ; value: >272 µM
CCC(C)C(N)C(=O)O[C@H]1C[C@H](n2cc(/C=C/Br)c(=O)[nH]c2=O)O[C@@H]1COP1(=O)OCc2cccc(C)c2O1 ; cells: VERO ; strain: B2006 (TK-) ; value: >128 µg/mL
Nc1nc2c(ncn2COCCO)c(=O)[nH]1 ; cells: VERO ; strain: F ; value: 0.11 µM
Cc1cccc2c1OP(=O)(OC[C@H]1O[C@@H](n3cc(/C=C/Br)c(=O)[nH]c3=O)C[C@@H]1OC(=O)[C@H](N)C(C)C)OC2 ; cells: VERO ; strain: B2006 (TK-) ; value: >128 µg/mL
CCN(CC)CCCC(C)Nc1c2ccc(Cl)cc2nc2ccc(OC)cc12 ; cells: VERO 76 ; value: >20 µM

Repeating the first 4 entries:

smiles,cells,strain,value
N#Cc1c(NC(=S)Nc2ccccc2)nc2[nH]c(=O)[nH]c(=O)c2c1-c1ccc(Cl)cc1,VERO,,8 µg/mL
Cc1cc(C)c2c(c1)COP(=O)(OC[C@H]1O[C@@H](n3cc(/C=C/Br)c(=O)[nH]c3=O)C[C@@H]1O)O2,VERO,B2006 (TK-),>128 µg/mL
N#Cc1c(NC(=O)Nc2ccccc2)nc2[nH]c(=O)[nH]c(=O)c2c1-c1ccc(Cl)cc1,VERO,,18 µg/mL
O=c1[nH]c(=O)n([C@H]2C[C@H](O)[C@@H](COP3(=O)OCc4ccccc4O3)O2)cc1/C=C/Br,VERO,KUPKA (TK+),0.38 µg/mL